From PubChem BioAssay AID1085 (Emory University Molecular Libraries Screening Center, 2008)
The list shows a part of the results, in another mix than the full data. Calls of active or inactive are those of the source. Rule as the data show it: active = inhibition above about 50%; inactive = the rest.

Chains of the proteins cited; added tags and fusions are not shown.
UniProt Q1HVG2, whole entry: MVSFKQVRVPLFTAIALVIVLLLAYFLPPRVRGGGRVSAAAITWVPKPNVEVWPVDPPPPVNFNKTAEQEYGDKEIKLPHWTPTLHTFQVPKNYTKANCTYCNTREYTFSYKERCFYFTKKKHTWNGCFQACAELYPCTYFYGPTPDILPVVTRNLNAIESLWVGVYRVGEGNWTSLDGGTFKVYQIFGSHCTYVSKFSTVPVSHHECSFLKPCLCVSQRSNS

The compounds below were run against Glycoprotein 42 (Epstein-Barr virus (strain AG876)) (UniProt Q1HVG2) (assay: Epstein-Barr virus gp42 inhibitors, primary screen, biochemical, uHTS, fluorescence polarization (AID 1085)). Details: Fluorescence polarization binding assay, mP read-out; active compounds read high; tested at 21.74 µM.

Structure (SMILES) | inhibition
CC(C)(C)OC(=O)N1CCC(Nc2ccccc2)CC1 | inactive: -10.2%
CCOc1ncccc1C(=O)NCC1(N2CCOCC2)CCCCC1 | inactive: -21.5%
CCCOc1ccc(C)cc1CN(CCCl)CCCl | inactive: -5.63%
CCC(CO)(C(=O)OC1CN2CCC1CC2)c1ccccc1 (centres undefined) | inactive: -6.74%
COc1cc(OC)cc(C(=O)NCC2(N3CCOCC3)CCCCC2)c1 | inactive: 8.46%
Fc1ccccc1NC1CCN(Cc2ccccc2)CC1 | inactive: -18%
CN(C)c1ccc(C(=O)NCC2(N3CCCCC3)CCCCC2)cc1 | inactive: -6.59%
CCN1CCC(Nc2cccc(F)c2)CC1 | inactive: -6.36%
N#Cc1ccc(C(=O)NCC2(N3CCCCC3)CCCCC2)cc1 | inactive: -26.6%
c1ccc(CN2CCC(Nc3ccccc3)CC2)cc1 | inactive: 1.09%
COc1ccc(C(=O)NCC2(N3CCOCC3)CCCCC2)cc1OC | inactive: -11.1%
O=C(OC1CN2CCC1CC2)C1c2ccccc2C=Cc2ccccc21 (centres undefined) | inactive: -11%
N/C(=N\O)c1c(N)no[n+]1[O-] | inactive: -9.03%
CN(C)c1cccc(C(=O)NCC2(N3CCCCC3)CCCCC2)c1 | inactive: -1.51%
COc1ccc(CN(CCCl)CCCl)cc1Cl | inactive: -17.1%
CC(C)c1ccc(NC2CCN(C(=O)OC(C)(C)C)CC2)cc1 | inactive: 6.89%
O=C(NCC1(N2CCCCC2)CCCCC1)c1cccc([N+](=O)[O-])c1 | inactive: -10.9%
N#CC1(Nc2ccccc2)CCN(CCc2ccccc2)CC1 | inactive: -5.01%
CN1CCN(CCOC(=O)C(O)(c2ccccc2)c2ccccc2)CC1 | inactive: -15.9%
COc1ccc(NC2CCN(C(=O)OC(C)(C)C)CC2)cc1 | inactive: -10.9%
O=C(NCC1(N2CCOCC2)CCCCC1)c1cc(=O)[nH]c2ccccc12 | inactive: -0.94%
COc1ccc(NC2CCN(CCc3ccccc3)CC2)c(OC)c1 | inactive: -10.9%
CCOc1ccc(C)cc1CN(CCCl)CCCl | inactive: -9.36%
Cc1ccc(OCC(C)C)c(CN(CCCl)CCCl)c1 | inactive: -6.38%
COc1ccc(C(=O)NCC2(N3CCCCC3)CCCCC2)c(OC)c1OC | inactive: -11%
CCOC(=O)N1CCC(Nc2ccc(OC)cc2)CC1 | inactive: -11.3%
O=C(OC1CN2CCC1CC2)C1c2ccccc2Oc2ccccc21 (centres undefined) | inactive: -7.58%
N#CC1(Nc2ccccc2)CCN(Cc2ccccc2)CC1 | inactive: -5.73%
O=C(NCC1(N2CCOCC2)CCCCC1)c1cc2ccccc2o1 | inactive: -25.8%
